Results of single-concentration screens

Mtb glucose medium: 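Whole-cell growth test on Mycobacterium tuberculosis, read after 3 days in glucose-containing 7H9 medium; the read-out is not stated. Tested at 500 µM. Higher reads as more growth inhibition (inferred: compounds with an IC50 in retests scored well above the rest). Of about 18,000 compounds tested this way, about 1,400 (7.9%) reached 50% or more in at least one test.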
Mtb cholesterol medium: 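Whole-cell growth test on Mycobacterium tuberculosis, read after 4 days in a medium based on cholesterol and the lipid DPPC; the read-out is not stated. Concentration: 500 µM. The record gives no direction; compounds that gave an IC50 in retests scored well above the rest, so higher reads as more growth inhibition. Size under these conditions: about 18,000 compounds, about 900 of them at 50% or above in at least one test.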

Values are the deposited “Percent Effect”, in %.
How 0% and 100% were set is not recorded. Most values in the screen are low, and negative values occur.
The entries come from a sample that favours strong results.

structure: OCC1(NCC2CC2)CCNCC1
Mtb glucose medium: -12.67

structure: Cc1cc(CN)on1
Mtb glucose medium: 99.94
Mtb cholesterol medium: 108

structure: CCOc1ccc(CNS(=O)(=O)N(C)C)cc1C
Mtb glucose medium: 62.75
Mtb cholesterol medium: 54.97

structure: CC(=O)N1CCC[C@H]1C(=O)NCCc1csc(C)n1
Mtb glucose medium: 55.92
Mtb cholesterol medium: 52.3

structure: CCOc1ncccc1CNC(=O)c1[nH]ncc1Br
Mtb glucose medium: 52.13

structure: NC1CN(c2ccncn2)C1
Mtb cholesterol medium: 8.447

structure: COc1cc(C)c(CNC2CC(=O)N(C)C2)cc1OC (stereo not drawn)
Mtb glucose medium: 0.2777

structure: COC(=O)c1ccc(CSc2nnc(N)[nH]2)cc1
Mtb glucose medium: 42.96
Mtb cholesterol medium: 38.03

structure: Cc1cnccc1CN(C)C(=O)c1ccc(F)cc1O
Mtb cholesterol medium: 4.775

structure: C1CC(CNC2CC2)CO1 (stereo not drawn)
Mtb glucose medium: -5.82

structure: O=C1CC(CNc2ncccn2)c2ccccc2N1 (stereo not drawn)
Mtb cholesterol medium: -1.276

structure: O=C(CN(Cc1cccs1)C1CC1)N1CCNC1=O
Mtb cholesterol medium: 4.023

structure: Cc1cc(C)nc(NC(=O)C(C)C)n1
Mtb glucose medium: -8.5

structure: Cc1ncncc1C(=O)NCCC1CCCN1C (stereo not drawn)
Mtb glucose medium: -3.022

structure: Cc1cc(C(=O)NCCCN(C)C)c(C)o1
Mtb cholesterol medium: -9.594

structure: CN(CCc1ccncc1)Cc1ccc(N(C)C)nc1
Mtb glucose medium: 9.609

structure: CC1CCN(CCCNc2ccc3nnnn3n2)CC1
Mtb glucose medium: -6.876

structure: Cc1ccsc1CNC(=O)N1CCOCC1
Mtb glucose medium: 25.79

structure: CC(CN)c1ccccc1 (stereo not drawn)
Mtb cholesterol medium: -21.78

structure: OC[C@@H]1CN(CC2CC2)C[C@H]1c1nc(C2CC2)no1
Mtb glucose medium: 3.912

structure: COCCCC1(CO)CCCN(Cc2cncnc2)C1 (stereo not drawn)
Mtb glucose medium: 8.066

structure: CCC=C(C)C(=O)NC1CCN(C(C)=O)CC1
Mtb glucose medium: 16.98

structure: COc1cccc(C(=O)NC2CCN(C)CC2)c1OC
Mtb glucose medium: 8.422

structure: CCC(NC(=O)COc1cccnc1)c1ccnn1C (stereo not drawn)
Mtb cholesterol medium: -11.82

structure: CC(O)(CN)c1cccs1 (stereo not drawn)
Mtb glucose medium: 12.82

structure: CCNC(=O)CCC(=O)N(C1CC1)C(C)c1ccco1 (stereo not drawn)
Mtb glucose medium: 15.51

structure: NC1CCc2nccn2C1 (stereo not drawn)
Mtb glucose medium: 2.42

structure: O=C(NCCC1CCCCO1)NC1CC=CC1 (stereo not drawn)
Mtb glucose medium: 23.44
Mtb cholesterol medium: 19.85

structure: CCN(CC(N)=O)S(=O)(=O)c1ccc2ccccc2c1
Mtb cholesterol medium: 17.35

structure: NC(=O)C(c1ccc(Br)cc1F)N1CC[S+]([O-])CC1 (stereo not drawn)
Mtb cholesterol medium: -5.182

structure: O=C(CN1CCC=C(F)C1)Nc1cccc(F)c1
Mtb glucose medium: 64.08
Mtb cholesterol medium: 53.18

structure: C/C=C/c1ccc(OCCN2CCNCC2)c(OC)c1
Mtb glucose medium: 49.52

structure: CCN1CCN(C(C)CNC(=O)Cn2cnnn2)CC1 (stereo not drawn)
Mtb glucose medium: 74.22
Mtb cholesterol medium: 73.31

structure: CCC(Nc1cccc(OC)c1)C(=O)NCCCN (stereo not drawn)
Mtb glucose medium: 44.44

structure: Nc1nc(N)nc(CN2CCCC2c2cccs2)n1 (stereo not drawn)
Mtb glucose medium: 58

structure: COC(=O)C(C)N(Cc1ccccn1)C1CC1 (stereo not drawn)
Mtb cholesterol medium: 25.58

Source: ChEMBL document CHEMBL3988442, “University of Dundee, Small-Polar-MMV Screening Library” (2021).